PubChem BioAssay AID1224833, University of Georgia | 2016

- Screen: 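Human genes whose knock-down alters rotavirus replication in monkey cells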 (primary screen)
- Cell system: monkey MA104 kidney cells
- Reagent: siRNA pool against human genes, 50 nM
- Duration: 48 h knock-down before infection; read 24 h after infection
- Treatment: infection with rotavirus strain RV3 two days after transfection; infectious dose for this stage not given
- Measured: 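Rotavirus antigen per well by fluorescent immunoassay, normalised to non-targeting control wells on each plate and given as a standard z-score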
- Reading the numbers: z-score vs non-targeting control: higher = more rotavirus replication than with non-targeting control
- Rule for the call: In these data the active calls have z-score vs non-targeting control at about -1 or lower, or at about 1 or higher
- Calls: active = z-score beyond 1 either way; inactive = z-score within 1 of zero
Shown is a random part of about 12,000 reagents. About 5,600 of all reagents (46%) were called active. 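Active calls cover z-scores past 1 in both directions, so they include lowered as well as raised rotavirus replication.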

gene knocked down | z-score vs non-targeting control | Outcome
PNMA2 (PNMA family member 2) | -1.09 | active
KLF17 (KLF transcription factor 17) | 0.718 | inactive
SLC25A25 | 1.08 | active
UNC5D (unc-5 netrin receptor D) | -0.882 | inactive
UCN3 (urocortin 3) | 2.09 | active
SMIM14 (small integral membrane protein 14) | -1.83 | active
OR2M7 (olfactory receptor family 2 subfamily M member 7) | -1.03 | active
MINAR1 (membrane integral NOTCH2 associated receptor 1) | -1.21 | active
DNAH7 (dynein axonemal heavy chain 7) | -2.34 | active
TLCD3A (TLC domain containing 3A) | -0.958 | inactive
IGFBP4 (insulin like growth factor binding protein 4) | -0.511 | inactive
PDZD2 (PDZ domain containing 2) | 0.398 | inactive
HJURP (Holliday junction recognition protein) | -1.77 | active
CD300LD (CD300 molecule like family member d) | -0.0999 | inactive
OR12D3 (olfactory receptor family 12 subfamily D member 3) | 0.179 | inactive
USP29 (ubiquitin specific peptidase 29) | 0.562 | inactive
ITPRIP (inositol 1,4,5-trisphosphate receptor interacting protein) | -0.715 | inactive
OBP2A (odorant binding protein 2A) | -0.32 | inactive
ARFRP1 (ARF related protein 1) | -0.971 | inactive
KIAA1191 | 0.745 | inactive
RHBG (Rh family B glycoprotein) | 0.922 | inactive
VSIR (V-set immunoregulatory receptor) | 1.33 | active
IL16 (interleukin 16) | 0.763 | inactive
JMJD1C (jumonji domain containing 1C) | -0.717 | inactive
DECR2 (2,4-dienoyl-CoA reductase 2) | -1.8 | active
DDIT4L (DNA damage inducible transcript 4 like) | 1.2 | active
WDTC1 (WD and tetratricopeptide repeats 1) | -0.701 | inactive
NOS1AP (nitric oxide synthase 1 adaptor protein) | 0.262 | inactive
HOGA1 (4-hydroxy-2-oxoglutarate aldolase 1) | -0.0799 | inactive
PRSS8 (serine protease 8) | 1.62 | active
MADD (MAP kinase activating death domain) | -1.05 | active
ALOX12 (arachidonate 12-lipoxygenase, 12S type) | -1.11 | active
THBS1 (thrombospondin 1) | -0.482 | inactive
SLC52A1 | 0.96 | inactive
ZNF501 (zinc finger protein 501) | -0.0337 | inactive
TONSL (tonsoku like, DNA repair protein) | 0.805 | inactive
IFI44 (interferon induced protein 44) | -0.638 | inactive
PITPNM1 (phosphatidylinositol transfer protein membrane associated 1) | -1.4 | active
ABT1 (activator of basal transcription 1) | 1.47 | active
MTCH1 | 0.857 | inactive
ZSCAN23 (zinc finger and SCAN domain containing 23) | 1.42 | active
SEMA4D (semaphorin 4D) | -2.23 | active
CLSTN3 (calsyntenin 3) | 0.0059 | inactive
GSAP (gamma-secretase activating protein) | 1.08 | active
KL (klotho) | -1.45 | active
KIR3DL3 | -1.21 | active
GAS7 (growth arrest specific 7) | 0.527 | inactive
VSIG4 (V-set and immunoglobulin domain containing 4) | -2.5 | active
RPS17 (ribosomal protein S17) | -4.15 | active
SKIL (SKI like proto-oncogene) | 0.839 | inactive

In a second layout: results already given.
{"gene knocked down":"GAS7 (growth arrest specific 7)","z-score vs non-targeting control":0.527,"Outcome":"inactive"}
{"gene knocked down":"VSIG4 (V-set and immunoglobulin domain containing 4)","z-score vs non-targeting control":-2.5,"Outcome":"active"}
{"gene knocked down":"RPS17 (ribosomal protein S17)","z-score vs non-targeting control":-4.15,"Outcome":"active"}
{"gene knocked down":"SKIL (SKI like proto-oncogene)","z-score vs non-targeting control":0.839,"Outcome":"inactive"}

The listing continues.
gene knocked down | z-score vs non-targeting control | Outcome
NDUFB1 (NADH:ubiquinone oxidoreductase subunit B1) | 1.15 | active
GARIN1B (golgi associated RAB2 interactor 1B) | -1.16 | active
SLC30A5 | -1.01 | active
IL20RB (interleukin 20 receptor subunit beta) | -0.607 | inactive
ZNF471 (zinc finger protein 471) | 0.293 | inactive
C9orf153 (chromosome 9 open reading frame 153) | -0.807 | inactive
SMAD7 (SMAD family member 7) | -1.64 | active
XKR7 (XK related 7) | -1.34 | active
LAD1 (ladinin 1) | 0.413 | inactive
STARD13 (StAR related lipid transfer domain containing 13) | -0.871 | inactive
RPL26L1 (ribosomal protein L26 like 1) | 0.0648 | inactive
ADCY10 (adenylate cyclase 10) | -0.652 | inactive
PLA2G7 (phospholipase A2 group VII) | 0.906 | inactive
KIF16B (kinesin family member 16B) | -2.34 | active
C6orf58 (chromosome 6 open reading frame 58) | 0.914 | inactive
SLC15A1 | 0.623 | inactive
C19orf47 (chromosome 19 open reading frame 47) | 3.44 | active
LEPROTL1 (leptin receptor overlapping transcript like 1) | -2.56 | active
GPD1 (glycerol-3-phosphate dehydrogenase 1) | -2.81 | active
MME (membrane metalloendopeptidase) | -0.638 | inactive
SMO (smoothened, frizzled class receptor) | -0.563 | inactive
MAPRE2 (microtubule associated protein RP/EB family member 2) | -1.45 | active
RUSC1 (RUN and SH3 domain containing 1) | -1.53 | active
GDAP1L1 | -0.514 | inactive
MYL2 (myosin light chain 2) | -1.46 | active
